Experimental data as given in publication PMC3470408.

Legend:
[1] = system: CC(C)=CCC/C(C)=C/CC/C(C)=C/CO[P@@](=O)(O)OP(=O)(O)O; test: purified protein; conditions: pH 7.0; 37.0 °C
[2] = system: CC(C)=CCC/C(C)=C/COP(=O)(O)OP(=O)(O)O; test: purified protein; conditions: pH 7.0; 37.0 °C

Row | Substance | Km [1] [µM] | Km [2] [µM]
1 | Rv0562 (Mycobacterium tuberculosis H37Rv) | 11 ± 3 | 2.3 ± 0.8
2 | Rv3383c (Mycobacterium tuberculosis H37Rv) | 19 ± 5 | –
